From paper PMC2693028 (ChemMedChem, 2008)
Several values for one entry are separate records, joined by “and”; a condition that tells them apart may be missing. Equal entries are not always repeated.

Columns and labels:
ΔANR B. anthracis = type: cell-based, Bacillus anthracis
[1] = system: Sterne strain B. anthracis; type: cell-based, Bacillus anthracis
[2] = system: methicillin–resistant Staphylococcus aureus (ATCC strain 43300); type: cell-based
[3] = system: Enterococcus fecalis (ATCC strain 29212); type: cell-based
[4] = system: vancomycin–resistant Enterococcus (VRE) (ATCC strain 51299); type: cell-based
[5] = system: Listeria monocytogenes (10403S); type: cell-based
[6] = system: Klebsiella pneumoniae (ATCC strain 700603); type: cell-based
[7] = system: Escherchia coli (ATCC strain 25922); type: cell-based
HeLa cells = conditions: human

In the case of `O=[N+]([O-])c1ccc(Oc2ccc(Cl)cc2O)c(Cl)c1` [Compound 6, 5-Chloro-2-(2-chloro-4-nitrophenoxy)phenol], the MBC/MIC (ΔANR B. anthracis) is reported as 1.4, the MBC/MIC [1] is reported as 2.1 and the MBC/MIC [2] is reported as 1.6–1.9 and 1.6. It also gave an MBC/MIC [3] of 7.1, an MBC/MIC [4] of 6.6 and an MBC/MIC [5] of 5.0. For the same compound, the MBC/MIC [6] was 7.1, the MBC/MIC [7] was 48.0 and the EC50/MIC ratio (HeLa cells) was 15–20.
